Pooled drug test results. Numbers come from NIAID ChemDB, via PubChem.

All rows: toxicity to cultured cells; cell line: MT-4; endpoint: CC50

CCn: concentration that lowers growth or viability of the cells by n%. Neighbouring rows are from separate reports.

compound,result
C[C@@H]1O[C@@H](Oc2c(-c3ccc(O)cc3)oc3cc(O)cc(O)c3c2=O)[C@H](O)[C@H](O)[C@H]1O,>100 µg/mL
COc1ccc2c(O)c(C(c3cccc(NS(=O)(=O)c4ccc(F)cc4)c3)C3CC3)c(=O)oc2c1,>30 µM
C=CCn1c(=O)c(C)cn([C@@H]2O[C@H](CO[Si](C)(C)C(C)(C)C)C3(OS(=O)(=O)C=C3N)[C@H]2O[Si](C)(C)C(C)(C)C)c1=O,≥300 µM
COc1cc(O)c2c(=O)c(Oc3ccccc3)coc2c1,>100 µg/mL
CCn1c(=O)c(C)cn([C@@H]2O[C@H](CO[Si](C)(C)C(C)(C)C)C3(OS(=O)(=O)C=C3N)[C@H]2O[Si](C)(C)C(C)(C)C)c1=O,123 µM
Cc1cn([C@H]2C[C@H](N=[N+]=[N-])[C@@H](COC(=O)C(=O)N3CCCC3C(=O)N[C@@H](Cc3ccccc3)C(=O)OCc3ccccc3)O2)c(=O)[nH]c1=O,88 µM
O=S(=O)(O)OCC1OC2OC3C(COS(=O)(=O)O)OC(OC4C(COS(=O)(=O)O)OC(OC5C(COS(=O)(=O)O)OC(OC6C(COS(=O)(=O)O)OC(OC7C(COS(=O)(=O)O)OC(OC8C(COS(=O)(=O)O)OC(OC9C(COS(=O)(=O)O)OC(OC1C(OS(=O)(=O)O)C2OS(=O)(=O)O)C(OS(=O)(=O)O)C9OS(=O)(=O)O)C(OS(=O)(=O)O)C8OS(=O)(=O)O)C(OS(=O)(=O)O)C7OS(=O)(=O)O)C(OS(=O)(=O)O)C6OS(=O)(=O)O)C(OS(=O)(=O)O)C5OS(=O)(=O)O)C(OS(=O)(=O)O)C4OS(=O)(=O)O)C(OS(=O)(=O)O)C3OS(=O)(=O)O,>125 µg/mL
CO[C@H]1O[C@@H](n2ccc(=O)[nH]c2=O)C[C@@H]1N=[N+]=[N-],>150 µM
C[C@@H]1O[C@@H](Oc2c(-c3ccc(O)c(O)c3)oc3cc(O)cc(O)c3c2=O)[C@H](O)[C@H](O)[C@H]1O,>100 µg/mL
Cc1cn([C@H]2C[C@H](N=[N+]=[N-])[C@@H](CO)O2)c(=O)[nH]c1=O,>2 µg/mL
CCc1cn([C@H]2C[C@H](N=[N+]=[N-])[C@@H](CO)O2)c(=O)[nH]c1=O,418 µM
CC(=O)Oc1ccc(/C=C/C(=O)O[C@@H](C(=O)O)[C@@H](OC(=O)/C=C/c2ccc(OC(C)=O)c(OC(C)=O)c2)C(=O)O)cc1OC(C)=O,74 µM
CC(=O)OCC1=C[C@H]2[C@@H]3C(C)(C)[C@]3(OC(C)=O)[C@H](OC(C)=O)[C@@H](C)[C@]2(O)[C@@H]2C=C(C)C(=O)[C@@]2(OC(C)=O)C1,>250 µg/mL
O=c1[nH]cnc2c1ncn2[C@H]1CC[C@@H](CO)O1,>2.71 µM
COc1c(CC=C(C)C)c(O)cc2oc(=O)c(-c3ccc(O)cc3O)cc12,13 µg/mL
Cc1cn([C@@H]2O[C@H](CO[Si](C)(C)C(C)(C)C)C3(OS(=O)(=O)C=C3N)[C@H]2O[Si](C)(C)C(C)(C)C)c(=O)n(C)c1=O,230 µM
CC(=O)O[C@@]12[C@H](O)[C@@H](C)[C@@]3(O)[C@@H](C=C(CO)C[C@]4(O)C(=O)C(C)=C[C@@H]34)[C@@H]1C2(C)C,>1000 µg/mL
CCc1c(Cc2ccc(-c3ccccc3)cc2)nc(SCc2ccc(OC)cc2)[nH]c1=O,>194 µM
N#Cc1ccc(S(=O)(=O)Nc2cccc(C(c3c(O)cc(C(CC4CC4)CC4CC4)oc3=O)C3CC3)c2)cc1,>30 µM
O=C1c2c(O)cc(O)cc2O[C@H](c2ccc(O)c(O)c2)[C@H]1O,>100 µg/mL
O=C(OC[C@@H]1CC[C@H](n2cnc3c(=O)[nH]cnc32)O1)C(=O)N1CCCC1C(=O)N[C@H](Cc1ccccc1)C(=O)OCc1ccccc1,>150 µM
CCc1c(Cc2cccc(Br)c2)nc(SCc2ccc(OC)cc2)[nH]c1=O,>201 µM
CC(C)=CCc1c(O)cc(O)c2c1O[C@H](c1ccccc1)CC2=O,>100 µg/mL
COc1cc(C(=O)OC[C@H]2O[C@@H](Oc3ccc(O)c4cccc(O)c34)[C@H](O)[C@@H](O)[C@@H]2O)cc(OC)c1O,>100 µg/mL
Nc1cc2c(=O)c(C(=O)O)cn(C3CC3)c2cc1NC1CC1,>200 µM
[N-]=[N+]=N[C@H]1C[C@H](n2ccc(N)nc2=O)O[C@@H]1CO,160 µM
CC(C)CC(NC(=O)C(Cc1ccccc1)NC(=O)C(N)CO)C(=O)NC(C(=O)O)C(C)O,>210 µM
O=c1ccn([C@H]2C[C@H](F)[C@@H](CO)O2)c(=O)[nH]1,75 µM
CCCCCCCCCCCCCCCCC(=O)O[C@@H]1[C@@H](C)[C@@]2(O)[C@@H](C=C(COC(C)=O)C[C@@]3(O)C(=O)C(C)=C[C@@H]23)[C@@H]2C(C)(C)[C@]12OC(C)=O,>1000 µg/mL
O=c1ccn([C@H]2C[C@H](F)[C@@H](CO)O2)c(=O)[nH]1,16 µM
CC(C)OP(=O)(COCC1(Cn2cnc3c(N)ncnc32)CC=CC1)OC(C)C,>100 µg/mL
Cc1cn([C@H]2C[C@H](F)[C@@H](CO)O2)c(=O)[nH]c1=O,0.197 µM
CCCS(=O)(=O)Nc1cccc(C(c2c(O)cc(C(CC)Cc3ccccc3)oc2=O)C2CC2)c1,>30 µM
Nc1ccn([C@H]2CC[C@@H](CO)O2)c(=O)n1,40 µM
COc1c2c(cc3oc(=O)c4c5ccc(O)cc5oc4c13)OC(C)(C)CC2,>100 µg/mL
Cc1cn([C@H]2CC[C@@H](CO)O2)c(=O)[nH]c1=O,>625 µM
COc1ccc2c(O)c(C(c3cccc(NS(=O)(=O)c4cn(C)cn4)c3)C3CC3)c(=O)oc2c1,>30 µM

For reference, 4 entries again:

compound	result
COc1ccc2c(O)c(C(c3cccc(NS(=O)(=O)c4ccc(F)cc4)c3)C3CC3)c(=O)oc2c1	>30 µM
O=C(OC[C@@H]1CC[C@H](n2cnc3c(=O)[nH]cnc32)O1)C(=O)N1CCCC1C(=O)N[C@H](Cc1ccccc1)C(=O)OCc1ccccc1	>150 µM
Cc1cn([C@@H]2O[C@H](CO[Si](C)(C)C(C)(C)C)C3(OS(=O)(=O)C=C3N)[C@H]2O[Si](C)(C)C(C)(C)C)c(=O)n(C)c1=O	230 µM
CCCCCCCCCCCCCCCCC(=O)O[C@@H]1[C@@H](C)[C@@]2(O)[C@@H](C=C(COC(C)=O)C[C@@]3(O)C(=O)C(C)=C[C@@H]23)[C@@H]2C(C)(C)[C@]12OC(C)=O	>1000 µg/mL